The nature of the series: NMR titration with geranyl pyrophosphate (lipid II mimic). In kind it is binding. As to the method: In order to evaluate target binding, we have performed the lipid II TLC binding assay[2] with Ala10-teixobactin. This assay provides qualitative binding data of Ala10-teixobactin with lipid II. […] Therefore, in order better understand the target binding of teixobactin analogues in a quantitative manner, extensive NMR studies (Fig. 6) on Ala10-teixobactin and geranyl pyrophosphate were performed.
This can occur due to intermediate exchange on the NMR time-scale, and therefore cooperative binding is not an obvious choice.

Bridge positions count the residues as written; N and C are the ends. Square brackets hold non-standard residues; d marks the D form. Peptide text beside a SMILES is read from it. d(aIle) = CC[C@H](C)[C@@H](N)C(=O)O; dNMeF = CN[C@H](Cc1ccccc1)C(=O)O

For `CC[C@H](C)[C@H](NC(=O)[C@@H](Cc1ccccc1)NC)C(=O)N[C@@H](CO)C(=O)N[C@H](CCC(N)=O)C(=O)N[C@@H](C(=O)N[C@H](C(=O)N[C@@H](CO)C(=O)N[C@H]1C(=O)N[C@@H](C)C(=O)N[C@@H](C)C(=O)N[C@@H]([C@@H](C)CC)C(=O)O[C@H]1C)[C@@H](C)CC)[C@@H](C)CC` [Compound 8, Ala10-teixobactin] (H-[dNMeF]IS[dQ][d(aIle)]IS[dT]AAI; ester 8-C), the Hill coefficient – broadly, a measure of the steepness of the concentration-response curve – reads like this: (2 Ile Hα) 2.1; (3 Ser Hα) 2.0; (4 D-Gln Hα) 2.2; (5 D-Ile Hα) 1.7; (9 Ala Hα) 2.1; (11 Ile Hα) 1.5. The same compound returned a Hill coefficient (all N-terminal residues) of around 2.

The record behind these values is PMC5855875 (Chemical Science, 2017).
